Compound potency records, mixed from different reports. Data source: NIAID ChemDB in PubChem.

Shared fields: toxicity to cultured cells; endpoint: CC50

Two numbers with a dash give a range or band. CCn is the concentration with n% toxicity to the cells. An empty or dashed field is not shown. Neighbouring rows are from separate reports.

smiles | read by | cell line | value
N#Cc1c(N)nc(N)nc1OCCOCP(=O)(O)O | - | HEPAD79 | >346 µM
CC(C)(C)NC(=O)[C@@H]1CN(Cc2cccnc2)CCN1C[C@@H](O)C[C@@H](Cc1ccccc1)C(=O)N[C@H]1c2ccccc2C[C@H]1O | - | HCT-8 | >1000 µg/mL
COc1cccc(CCNC(=S)Nc2ccc(Br)cn2)c1 | - | HUMAN SPERM | >500 µM
C[C@](Cl)([C@@H](Br)/C=C/[C@](C)(Cl)CBr)[C@@H](Br)CCl | - | KBV (-VBL) | 5.3 µg/mL
CN1[C@@H]2CC[C@H]1CC(OC(=O)C(CO)c1ccccc1)C2 | - | HeLa | >1.3 µM
CCn1cc(C(=O)NC)c(=O)c2ccc(-c3ccncc3)cc21 | - | VERO | >25 µg/mL
O=c1nc(N2CCC(=NOCc3ccccc3)CC2)sc2c([N+](=O)[O-])cc(C(F)(F)F)cc12 | MTT | A-594 | 441 µg/mL
CC(C)(C)NC(=O)[C@@H]1C[C@@H]2CCCC[C@@H]2CN1C[C@@H](O)[C@H](Cc1ccccc1)NC(=O)[C@H](CC(N)=O)NC(=O)c1ccc2ccccc2n1 | - | HCT-8 | >250 µg/mL
C#CCCC[C@@H]1OC(=O)CNC(=O)[C@H](C(C)C)NC(=O)[C@@H]2CCCN2C(=O)[C@H]([C@@H](C)CC)OC(=O)[C@H](Cc2ccccc2)N(C)C(=O)[C@H](C(C)C)NC(=O)C1(C)C | MTT | HT-29 | 87 µM
CCn1cc(C2=NCCN2)c(=O)c2ccc(-c3ccncc3)cc21 | - | VERO | >100 µg/mL
CCON=C1CCN(c2nc(=O)c3cc(C(F)(F)F)cc([N+](=O)[O-])c3s2)CC1 | MTT | A-594 | 191 µg/mL
COc1ncnc(N2CC[N+]3(CC2)CC[N+]2(CCN(c4ncnc(OC)c4[N+](=O)[O-])CC2)CC3)c1[N+](=O)[O-] | - | L929 | >304.2 µg/mL
O=C(/C=C/C=C/c1ccc(Br)cc1)[Se]c1ccccc1 | WST | HLE | >100 µM
CCCCCC(=O)O[C@H]1C[C@H](n2cc(/C=C/Br)c(=O)[nH]c2=O)O[C@@H]1COP1(=O)OCc2cccc(C)c2O1 | - | P3HR-1 | >200 µg/mL
O=C(/C=C/C=C/c1ccc(O)c(O)c1)[Se]c1ccccc1 | WST | Li-7 | >100 µM
CC(C)(C)CC(C)(C)c1ccc(OCCOP(=O)([O-])OCC[N+](C)(C)Cc2ccccc2)cc1 | MTT | HUVEC | >100 µM
Cc1cn([C@@H]2C[C@@H](O)[C@H](CO)O2)c(=O)[nH]c1=O | - | MA-104 | >100 µM
Nc1cc(OCCOCP(=O)(O)O)nc(=O)[nH]1 | - | HepAD38 | >356 µM
COC(=O)[C@@H](NP(=O)(OC[C@H]1O[C@@H](N2C(=O)NC(=O)C(C)(Br)C2OC)C[C@@H]1N=[N+]=[N-])Oc1ccccc1)C(C)C | - | HUMAN SPERM | 300 µM
NC(=NCCC[C@H](N)C(=O)O)N[C@@H](CC(=O)O)C(=O)O | - | HeLa | >200 µg/mL
COC(=O)[C@H](C)NP(=O)(OC[C@H]1O[C@@H](N2C(=O)NC(=O)C(C)(Br)C2OC)C[C@@H]1N=[N+]=[N-])Oc1ccccc1 | - | HUMAN SPERM | >35 µM
Cc1nc(C2CCCCCC2)c([N+](=O)[O-])c(N2CC[N+]3(CC2)CC[N+]2(CCN(c4nc(C)nc(C5CCCCCC5)c4[N+](=O)[O-])CC2)CC3)n1 | - | GMK | >65.3 µg/mL
Nc1ccn([C@@H]2C[C@@H](O)[C@H](CO)O2)c(=O)n1 | - | MA-104 | >100 µM
Nc1nc(=O)n(C=C=CCO)cc1F | - | 2.2.15 | >100 µM
CCC1OC(=O)CC(O)C(C)C(OC2CC(N(C)C)C(OC3CC(C)(O)C(O)C(C)O3)C(C)O2)C(CC=O)CC(C)C(=O)/C=C/C2(C)OC2C1COC1OC(C)C(O)C(OC)C1OC | - | HeLa | 100 µg/mL
COC(=O)[C@H](CCSC)NP(=O)(OC[C@H]1O[C@@H](N2C(=O)NC(=O)C(C)(Br)C2OC)C[C@@H]1N=[N+]=[N-])Oc1ccccc1 | - | HUMAN SPERM | 95 µM
CC(C)C12C=C3CC[C@H]4[C@](C)(C(=O)O)CCC[C@]4(C)[C@]3(CC1)OO2 | absorbance | NCl-H187 | 7.5 µg/mL
Nc1ccn(CC#CCO)c(=O)n1 | - | 2.2.15 | >100 µM
C[C@H](COc1cc(N)nc(N)n1)OCP(=O)(O)O | - | HEPAD79 | >360 µM
CO/N=C1\CCN(c2nc(=O)c3cc(C(F)(F)F)cc([N+](=O)[O-])c3s2)C1 | MTT | A-594 | 57.66 µg/mL
O=C(O)c1cc(C(=O)O)cc(-c2c3nc(c(-c4cc(C(=O)O)cc(C(=O)O)c4)c4ccc([nH]4)c(-c4cc(C(=O)O)cc(C(=O)O)c4)c4nc(c(-c5cc(C(=O)O)cc(C(=O)O)c5)c5ccc2[nH]5)C=C4)C=C3)c1 | MTT | MAGI cell | 36 µM
O=C(/C=C/c1ccc(O)cc1)[Se]c1ccccc1 | WST | Li-7 | >100 µM
Nc1ncnc2c1c(I)cn2[C@@H]1O[C@H](CO)[C@@H](O)[C@H]1O | XTT | HL-60 | 6.44 µM
Nc1ccn(C[C@@H](CO)OCP(=O)(O)O)c(=O)n1 | MTT | CBMC | 190 µM
O=[N+]([O-])c1c(C2CCCCCC2)ncnc1N1CC[N+]2(CC1)CC[N+]1(CCN(c3ncnc(C4CCCCCC4)c3[N+](=O)[O-])CC1)CC2 | - | K562 | >271.1 µg/mL
CC(=O)NC[C@H]1CN(c2ccc(N3CCOCC3)c(F)c2)C(=O)O1 | MTT | THP-1 | >100 µg/mL
Nc1nc(OCCOCP(=O)(O)O)cc(=O)[nH]1 | - | HEPAD79 | >329 µM
C/C=C/c1ccc2c(c1)[C@H](C)[C@@H](c1ccc(O)cc1)O2 | sulforhodamine / absorbance | P-388 | 32.4 µM
CCn1cc2c(=O)n(-c3ccccc3)nc-2c2ccc(-c3ccncc3)cc21 | - | VERO | >100 µg/mL
FC(F)(F)c1ccc(NC(=S)NCCc2ccccn2)nc1 | - | HUMAN SPERM | >500 µM
CCn1cc(C(=O)NO)c(=O)c2ccc(-c3ccncc3)cc21 | - | VERO | >25 µg/mL
C/C=C/c1ccc2c(c1)[C@H](C)[C@@H](c1ccc(OC)c(OC)c1)O2 | sulforhodamine / absorbance | HT-29 | 40.3 µM
Oc1ccc(CCNC(=S)Nc2ccc(Br)cn2)cc1 | - | HUMAN SPERM | 233 µM
CO[C@H]1[C@@H](O)[C@H](N)[C@@H](O[C@H]2O[C@H](C(C)N)CC[C@H]2N)[C@H](O)[C@@H]1N(C)C(=O)CN | - | HeLa | >200 µg/mL
Nc1nc(NC2CC2)c2ncn([C@H]3C=C[C@@H](CO)C3)c2n1 | WST | HLE | >100 µM
S=C(NCCc1ccccc1Cl)Nc1ccc(Br)cn1 | - | Human vaginal epithelial | >1000 µM
Nc1nc(N)c(Br)c(OCCOCP(=O)(O)O)n1 | - | HepAD38 | >292 µM
CC(C)(C)C(=O)OCOP(=O)(COCCn1cnc2c(N)ncnc21)OCOC(=O)C(C)(C)C | MTT | CBMC | 0.3 µM
O=[N+]([O-])c1c(N2CCCC2)ncnc1N1CC[N+]2(CC1)CC[N+]1(CCN(c3ncnc(N4CCCC4)c3[N+](=O)[O-])CC1)CC2 | - | K562 | >293.4 µg/mL
CCCCCCCCCCCCCCCC[N+](C)(C)Cc1ccccc1 | MTT | MDA | 3.5 µM
Nc1nc(N)c(C=O)c(OCCOCP(=O)(O)O)n1 | - | HepAD38 | >342 µM
Cc1cccc2c1OP(=O)(OC[C@H]1O[C@@H](n3cc(/C=C/Br)c(=O)[nH]c3=O)C[C@@H]1OC(=O)[C@H](N)Cc1ccccc1)OC2 | - | P3HR-1 | 16 µg/mL
CC(C)OC(=O)[C@H](C)N[P@](=O)(OC[C@H]1O[C@@](C#N)(c2ccc3c(N)ncnn23)[C@](C)(O)[C@@H]1OC(=O)C(C)C)Oc1ccccc1 | ATP | PC-3 | 40 µM
C=CC(CO)C(=C)Cn1cnc2c(=O)[nH]c(N)nc21 | - | MT-4 (T-CELL) | <3.57 µg/mL
Nc1ncnc2c1ncn2[C@@H]1C[C@@H](O)[C@H](CO)O1 | - | CV-1 | >100 µM
CSc1nc(Cl)c([N+](=O)[O-])c(N2CC[N+]3(CC2)CC[N+]2(CCN(c4nc(SC)nc(Cl)c4[N+](=O)[O-])CC2)CC3)n1 | - | GMK | >659.2 µg/mL
Nc1nc2c(ncn2COCCO)c(=O)[nH]1 | - | BCC-1/KMC | 126.8 µg/mL
CCCCCCCCCc1ccc(OCCOCCOCCOCCOCCOCCOCCOCCOCCO)cc1 | - | Human vaginal epithelial | 64 µM
Cc1c(N)nc(N)nc1OCCOCP(=O)(O)O | - | HepAD38 | >360 µM
S=C(NCCc1ccccn1)Nc1ccccn1 | - | HUMAN SPERM | 279 µM
O=C(CCCc1ccccc1)N1CC[N+]2(CC1)CC[N+]1(CCN(C(=O)CCCc3ccccc3)CC1)CC2 | - | GMK | >339.2 µg/mL
Nc1ncnc2c1ncn2CCOCP(=O)(O)O | MTT | CBMC | 39 µM
CON=C1CN(c2nc(=O)c3cc(C(F)(F)F)cc([N+](=O)[O-])c3s2)C1 | MTT | A-594 | 91.37 µg/mL
CCn1cc(C(N)=O)c(=O)c2ccc(-c3cccnc3)cc21 | - | VERO | >50 µg/mL
CC1=C(/C=C/C(C)=C/C=C/C(C)=C/C=O)C(C)(C)CCC1 | - | HeLa | 100 µg/mL
O=C(/C=C/c1ccc(O)c(O)c1)[Se]c1ccccc1 | WST | Li-7 | >100 µM
C[C@H]1O[C@@H](n2ccc(NC(=O)c3ccc(NC(=O)[C@@](C)(N)CO)cc3)nc2=O)C[C@@H](O)[C@@H]1O[C@H]1O[C@H](C)[C@@H](N(C)C)[C@H](O)[C@H]1O | - | HeLa | 500 µg/mL
Cc1cc(OCCOCP(=O)(O)O)nc(N)n1 | - | HEPAD79 | >380 µM
O=C([O-])c1cc(COc2ccc(-c3c4nc(c(-c5ccc(OCc6cc(C(=O)[O-])cc(C(=O)[O-])c6)cc5)c5ccc([nH]5)c(-c5ccc(OCc6cc(C(=O)[O-])cc(C(=O)[O-])c6)cc5)c5nc(c(-c6ccc(OCc7cc(C(=O)[O-])cc(C(=O)[O-])c7)cc6)c6ccc3[nH]6)C=C5)C=C4)cc2)cc(C(=O)[O-])c1 | MTT | MAGI cell | 35 µM
Nc1nc(NC2CC2)c2ncn([C@H]3C=C[C@@H](CO)C3)c2n1 | - | HB611 | >200 µM
COC(=O)c1cc2cc3cc4cc(CC(=O)O)c(/C(O)=C/C(=O)c5ccccc5O)c(OC)c4c(OC)c3c(O)c2c(=O)o1 | - | HeLa | 100–200 µg/mL
COc1cc(/C=C/C(=O)[Se]c2ccccc2)ccc1O | WST | Li-7 | >100 µM
C=C[C@@]1(C)C=C2CC[C@@H]3[C@](C)(CCC[C@@]3(C)C(=O)O)[C@H]2CC1 | absorbance | NCl-H187 | 42.11 µg/mL
O=c1[nH]c(=O)n([C@H]2C[C@H](O)[C@@H](CO)O2)cc1I | MTT | CBMC | 170 µM
CC(=O)NC[C@H]1CN(c2ccc(N3CCN(c4nc(Cl)cc(Cl)n4)CC3)c(F)c2)C(=O)O1 | MTT | THP-1 | 11.6 µg/mL
Nc1ccn([C@@H]2CS[C@H](CO)O2)c(=O)n1 | WST | HLE | >100 µM
Nc1cc(SCCOCP(=O)(O)O)nc(N)n1 | - | HepAD38 | >357 µM
COC(=O)[C@H](C)NP(=O)(OC[C@H]1O[C@@H](N2C(=O)NC(=O)C(C)(Br)C2OC)C[C@@H]1N=[N+]=[N-])Oc1ccc(OC)cc1 | - | Human vaginal epithelial | >400 µM
NC(=O)c1c(N)n(-c2ccc(F)cc2)c2cc(-c3ccncc3)ccc2c1=O | - | VERO | >100 µg/mL
C#CCCC[C@@H]1OC(=O)CNC(=O)[C@H]([C@@H](C)CC)NC(=O)[C@@H]2CCCN2C(=O)[C@H]([C@@H](C)CC)OC(=O)[C@H](Cc2ccccc2)N(C)C(=O)[C@H](C(C)C)NC(=O)C1(C)C | MTT | HT-29 | 13 µM
CC(C)(C)CC(C)(C)c1ccc(OCCOP(=O)([O-])OCCC[N+](C)(C)Cc2ccccc2)cc1 | MTT | MDA | >100 µM

For reference, 10 entries again:

smiles,read by,cell line,value
CN1[C@@H]2CC[C@H]1CC(OC(=O)C(CO)c1ccccc1)C2,-,HeLa,>1.3 µM
Nc1ncnc2c1c(I)cn2[C@@H]1O[C@H](CO)[C@@H](O)[C@H]1O,XTT,HL-60,6.44 µM
Nc1ccn(CC#CCO)c(=O)n1,-,2.2.15,>100 µM
CCC1OC(=O)CC(O)C(C)C(OC2CC(N(C)C)C(OC3CC(C)(O)C(O)C(C)O3)C(C)O2)C(CC=O)CC(C)C(=O)/C=C/C2(C)OC2C1COC1OC(C)C(O)C(OC)C1OC,-,HeLa,100 µg/mL
Nc1nc(NC2CC2)c2ncn([C@H]3C=C[C@@H](CO)C3)c2n1,WST,HLE,>100 µM
COC(=O)[C@H](C)NP(=O)(OC[C@H]1O[C@@H](N2C(=O)NC(=O)C(C)(Br)C2OC)C[C@@H]1N=[N+]=[N-])Oc1ccccc1,-,HUMAN SPERM,>35 µM
Oc1ccc(CCNC(=S)Nc2ccc(Br)cn2)cc1,-,HUMAN SPERM,233 µM
Cc1nc(C2CCCCCC2)c([N+](=O)[O-])c(N2CC[N+]3(CC2)CC[N+]2(CCN(c4nc(C)nc(C5CCCCCC5)c4[N+](=O)[O-])CC2)CC3)n1,-,GMK,>65.3 µg/mL
O=[N+]([O-])c1c(C2CCCCCC2)ncnc1N1CC[N+]2(CC1)CC[N+]1(CCN(c3ncnc(C4CCCCCC4)c3[N+](=O)[O-])CC1)CC2,-,K562,>271.1 µg/mL
CC1=C(/C=C/C(C)=C/C=C/C(C)=C/C=O)C(C)(C)CCC1,-,HeLa,100 µg/mL